Anti-infective test results gathered from many reports (values: NIAID ChemDB through PubChem).

Common to all: tests in culture; organism: HIV-1; endpoint: EC50

Lines come from different laboratories, so protocols vary.

smiles	strain or isolate	mutations	cell line	method	conditions	value
CCCCCCCCCCCCCCCCOP(=O)(OC[C@H]1OC(O)[C@@H](O)[C@@H](O)[C@@H]1O)OC[C@H]1O[C@@H](n2cc(C)c(=O)[nH]c2=O)C[C@@H]1N=[N+]=[N-]	LAV-Bru	-	U-937	RT activity	14 d	>1 µM
CC(C)C1=C2[C@H]3CC[C@@H]4[C@@]5(C)CC[C@H](OC(=O)[C@H]6C[C@@H](C(=O)O)C6(C)C)C(C)(C)[C@@H]5CC[C@@]4(C)[C@]3(C)CC[C@@]2(CCNCC(C)(C)NC(=O)c2ccc(CN3CCOCC3)cc2)CC1=O	92HT599	-	MT-2	p24 / ELISA	-	<1 µM
CC(Oc1cccc2cccnc12)C(=O)N1CCC(=C(C#N)c2ccccc2)CC1	-	-	HeLa CD4	luciferase / reporter gene	-	≤1 µM
Cc1cc(S(N)(=O)=O)ccc1NC(=O)COc1ccc(Cl)cc1C(=O)c1cc(F)cc(C(F)(F)F)c1	IIIB	-	HELA MAGI	luciferase	-	0.0014 µM
CC(C)C1=C2[C@H]3CC[C@@H]4[C@@]5(C)CC[C@H](OC(=O)[C@H]6C[C@@H](C(=O)O)C6(C)C)C(C)(C)[C@@H]5CC[C@@]4(C)[C@]3(C)CC[C@@]2([C@@H](O)CNC(=O)c2cnn3cccnc23)CC1=O	92HT599	-	MT-2	p24 / ELISA	-	<1 µM
CSC1=NC2(C[C@@H]2c2ccccc2)C(=O)N1C(C)=O	RK	-	MT-4/C8166 + MT-4	MTT	-	2.3–5.8 µg/mL
O=C(O[C@@H]1[C@H](OC(=O)c2ccccc2)[C@@H](CO)O[C@H]1n1cnc2c(N(C(=O)c3ccccc3)C(=O)c3ccccc3)ncnc21)c1ccccc1	NL4-3	-	HeLaP4	β-galactosidase	-	1–2 µM
CC(C)C1=C2[C@H]3CC[C@@H]4[C@@]5(C)CC[C@H](OC(=O)[C@H]6C[C@@H](C(=O)O)C6(C)C)C(C)(C)[C@@H]5CC[C@@]4(C)[C@]3(C)CC[C@@]2([C@@H](O)CNCc2cnn3cccnc23)CC1=O	92HT599	-	MT-2	p24 / ELISA	-	<1 µM
O=C(c1c(O)cc(O)cc1O)c1c(-c2ccc(O)cc2)oc2cc(O)c3c(c12)O[C@H](c1ccc(O)cc1)CC3	IIIB	-	MOLT-4/HIV-1(IIIB) + MOLT-4	p24	-	>30 µg/mL
CC(Oc1cccc2ncccc12)C(=O)N1CC/C(=C(\C#N)c2ccccc2)CC1C	-	-	HeLa CD4	luciferase / reporter gene	-	≤1 µM
Nc1ncnc2c1ncn2COCCOP(=O)([O-])O[C@@H]1[C@H](O)[C@@H](COP(=O)([O-])O[C@@H]2[C@H](O)[C@@H](COP(=O)([O-])O[C@@H]3[C@H](O)[C@@H](CO)O[C@H]3n3cnc4c(NCc5ccccc5)ncnc43)O[C@H]2n2cnc3c(N)ncnc32)O[C@H]1n1cnc2c(N)ncnc21	-	-	SupT1 + Sup-T1	syncytia	-	<100 µM
O=C(c1c(O)cc(O)cc1O)c1c(-c2ccc(O)cc2)oc2cc(O)c3c(c12)O[C@H](c1ccc(O)cc1)[C@@H](O)C3	IIIB	-	MOLT-4/HIV-1(IIIB) + MOLT-4	p24	-	>30 µg/mL
CC(C)C1=C2[C@H]3CC[C@@H]4[C@@]5(C)CC[C@H](OC(=O)[C@H]6C[C@@H](C(=O)O)C6(C)C)C(C)(C)[C@@H]5CC[C@@]4(C)[C@]3(C)CC[C@@]2(CCNC(=O)c2ccccc2Cl)CC1=O	92HT599	-	MT-2	p24 / ELISA	-	<1 µM
CCCCCCCCCCCCCCCCOP(=O)(OCCO[C@@H]1O[C@H](CO)[C@@H](O)[C@H](O)[C@@H]1O)OC[C@H]1O[C@@H](n2cc(C)c(=O)[nH]c2=O)C[C@@H]1N=[N+]=[N-]	LAV-Bru	-	U-937	RT activity	14 d	>1 µM
Cc1ccc2cccc(-n3c(SCC(=O)Nc4ccc(S(N)(=O)=O)cc4Cl)nnc3C(F)(F)F)c2n1	NL4-3	RT-Y188L	HeLa + HeLa-JC53	luciferase	-	0.022 µM
CCCCCCCCCCCCCC(=O)OCC/C(SS/C(CCOC(=O)CCCCCCCCCCCCC)=C(\C)N(C=O)Cc1cnc(C)nc1N)=C(/C)N(C=O)Cc1cnc(C)nc1N	MN(SI/TT)	-	PBMC(CXCR4 CCR5) + PBMC	p24	-	<12.5 µM
Nc1ncnc2c1ncn2COCCOP(=O)(O)O	-	-	SupT1 + Sup-T1	RT activity	-	>300 µM
CC(C)[C@H](NC(=O)[C@H](CO)NC(=O)[C@@H](N)CS)C(=O)N[C@H](C(=O)N[C@@H](CS)C(=O)NCC(=O)O)[C@@H](C)O	IIIB	-	PBMC(PHA STIM.) + PBMC	p24	-	<0.66 µM
O=c1[nH]ncc(NN/C=C2/C=NC3C=CC=CC23)c1Cl	BaL	-	MDM	-	-	0.04 µM
Cc1nnc(C(=C2CCN(C(=O)C(C)Oc3cccc4ncccc34)CC2)c2ccccc2)o1	-	-	HeLa CD4	luciferase / reporter gene	-	>1 µM
[2H]C(CNCC[C@@]12CC[C@]3(C)[C@H](CC[C@@H]4[C@@]5(C)CC[C@H](OC(=O)[C@H]6C[C@@H](C(=O)O)C6(C)C)C(C)(C)[C@@H]5CC[C@]43C)C1=C(C(C)C)C(=O)C2)NC(=O)c1ccc(Cl)cc1	92HT599	-	MT-2	p24 / ELISA	-	<1 µM
CC(C)CCC[C@@H](C)[C@H]1CC[C@H]2[C@@H]3CC[C@H]4C[C@@H](CCC=C(c5cc(Cl)c(O)c(C(=O)O)c5)c5cc(Cl)c(O)c(C(=O)O)c5)CC[C@]4(C)[C@H]3CC[C@]12C	WEJO	-	PBLC	p24	-	33 µM
CC(C)C1=C2[C@H]3CC[C@@H]4[C@@]5(C)CC[C@H](OC(=O)[C@H]6C[C@@H](C(=O)O)C6(C)C)C(C)(C)[C@@H]5CC[C@@]4(C)[C@]3(C)CC[C@@]2(CC(=O)NCc2ccc(Cl)cc2OCCN2CCCC2)CC1=O	92HT599	-	MT-2	p24 / ELISA	-	<1 µM
Nc1ncnc2c1ncn2COCCOP(=O)([O-])O[C@@H]1[C@H](O)[C@@H](COP(=O)([O-])O[C@@H]2[C@H](O)[C@@H](COP(=O)([O-])O[C@@H]3[C@H](O)[C@@H](CO)O[C@H]3n3cnc4c(N)ncnc43)O[C@H]2n2cnc3c(N)ncnc32)O[C@H]1n1cnc2c(N)ncnc21	-	-	SupT1 + Sup-T1	p24	-	>100 µM
Cc1cc(C)c2ccccc2c1-n1c(C)nnc1SCC(=O)Nc1ccccc1Br	NL4-3	RT-Y188L	HeLa + HeLa-JC53	luciferase	-	0.089 µM
C=C(C)[C@@H]1CC[C@]2(C(=O)NCCCCCCCC(=O)N[C@@H](CC(C)C)[C@@H](O)CC(=O)O)CC[C@]3(C)[C@H](CC[C@@H]4[C@@]5(C)CC[C@H](O)C(C)(C)[C@@H]5CC[C@]43C)[C@@H]12	LAI	GP41-K77R	HeLa P4 + HeLa	syncytia	-	<10 µM
CCOP(=O)(CO[C@]1(C2CC2)C=C[C@H](n2cnc3c(N)ncnc32)C1)OCC	-	-	T4	XTT / absorbance	-	62.5 µM
CC(C)C1=C2[C@H]3CC[C@@H]4[C@@]5(C)CC[C@H](OC(=O)[C@H]6C[C@@H](C(=O)O)C6(C)C)C(C)(C)[C@@H]5CC[C@@]4(C)[C@]3(C)CC[C@@]2(CC(=O)NCc2ccc(N3CCOCC3)cc2)CC1=O	92HT599	-	MT-2	p24 / ELISA	-	<1 µM
CC(C)(C)C(=O)OCOP(=O)(OCOC(=O)C(C)(C)C)OC[C@@H]1CC[C@H](n2ccc(=O)[nH]c2=O)O1	-	-	CEM + CEM TK-	MTT	-	2.5 µM
COc1cc(C(=O)N2CCN(C(=O)c3cc(OC)c(OC)c(OC)c3)C(COC(=S)N(C)C)C2)cc(OC)c1OC	BaL	-	MDM	RT activity	-	<100 µM
O=C(O)c1cc(C(=CCC23CC4CC(CC(C4)C2)C3)c2cc(Cl)c(O)c(C(=O)O)c2)cc(Cl)c1O	WEJO	-	PBLC	p24	-	148 µM
O=C1NN(c2ccc(Br)cc2)C(=O)C1Cc1ccc([N+](=O)[O-])o1	BaL	-	MDM	-	-	0.7 µM
Cc1cn([C@H]2C=C[C@@H](CO)O2)c(=O)[nH]c1=O	BaL	-	MM + M/M	p24	-	0.25 µM
CCCCC#CCSc1ccccc1OC(C)=O	-	-	U1/HIV-1 + U1	p24	chronic infection	>30 µM
COC(=O)c1ccc(OC(C)C(=O)N2CCC(=C(c3ccccc3)c3nnc(C)o3)CC2)c(OC)c1	-	-	HeLa CD4	luciferase / reporter gene	-	≤1 µM
Cc1nnc(SCC(=O)Nc2ccc(S(N)(=O)=O)cc2Cl)n1-c1ccc(Cl)c2ccccc12	NL4-3	RT-Y188L	HeLa + HeLa-JC53	luciferase	-	0.068 µM
CC(C)C1=C2[C@H]3CC[C@@H]4[C@@]5(C)CC[C@H](OC(=O)[C@@H]6C[C@H](C(=O)O)C6(C)C)C(C)(C)[C@@H]5CC[C@@]4(C)[C@]3(C)CC[C@@]2(CCN(CCN(C)C)C(=O)c2ccc(Cl)cc2)CC1=O	92HT599	-	MT-2	p24 / ELISA	-	<1 µM
CC(=O)c1c(C)nc(-c2ccccc2)nc1NC(=O)c1ccccc1	6463-13	-	HeLa	GFP / fluorescence	-	0.04 µM
Nc1ccn([C@@H]2CS[C@H](CO)O2)c(=O)n1	NL4-3	M184V-R263K	TZM-bl	luciferase	-	2.099 µM
CC(C)C1=C2[C@H]3CC[C@@H]4[C@@]5(C)CC[C@H](OC(=O)[C@H]6C[C@@H](C(=O)O)C6(C)C)C(C)(C)[C@@H]5CC[C@@]4(C)[C@]3(C)CC[C@@]2(CC(=O)NCC(C)(CN)NC(=O)c2ccc(Cl)cc2)CC1=O	92HT599	-	MT-2	p24 / ELISA	-	<1 µM
CC(C)[C@H](NC(=O)[C@H](CO)NC(=O)[C@H](CS)NC(=O)CCC(=O)NCCCOCCOCCCN)C(=O)N[C@H](C(=O)N[C@@H](CS)C(=O)NCC(=O)O)[C@@H](C)O	IIIB	-	PBMC(PHA STIM.) + PBMC	p24	-	<0.132 µM

ECn is the concentration giving n% inhibition of infection, replication or growth. Two numbers with a dash give a range or band. Blank or dashed fields: not listed here.